Converted amounts (≈) assume the structure as drawn.
What was measured:
N. gonorrhoeae = experiment: MIC determination, agar dilution (CLSI); type: cell-based, Neisseria gonorrhoeae
[1] = biological target: recombinant NgFabI protein (Neisseria gonorrhoeae, UniProt A0ACH0F547); details: read-out: NgFabI IC50
[2] = screening panel N. gonorrhoeae isolate A
[3] = screening panel N. gonorrhoeae isolate B
[4] = screening panel N. gonorrhoeae isolate C
[5] = screening panel N. gonorrhoeae isolate D
[6] = screening panel N. gonorrhoeae isolate E
[7] = screening panel N. gonorrhoeae isolate F
[8] = screening panel N. gonorrhoeae isolate G
[9] = screening panel N. gonorrhoeae isolate H
[10] = screening panel N. gonorrhoeae isolate I
[11] = screening panel N. gonorrhoeae isolate J
[12] = screening panel N. gonorrhoeae isolate K
[13] = screening panel N. gonorrhoeae isolate L
[14] = screening panel N. gonorrhoeae isolate M
[15] = screening panel N. gonorrhoeae isolate N

By UniProt entry, the sequences of proteins in these tests, tags left out. Residues count along the entry.
UniProt A0ACH0F547, 1-261: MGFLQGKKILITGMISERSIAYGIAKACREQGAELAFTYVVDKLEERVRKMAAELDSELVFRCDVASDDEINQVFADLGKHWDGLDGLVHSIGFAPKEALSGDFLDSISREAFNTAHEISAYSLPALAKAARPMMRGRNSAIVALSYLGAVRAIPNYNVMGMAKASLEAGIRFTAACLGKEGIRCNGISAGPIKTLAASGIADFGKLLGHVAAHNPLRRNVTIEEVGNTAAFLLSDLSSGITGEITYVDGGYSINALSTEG

| SMILES | Minimum inhibitory concentration (N. gonorrhoeae; [2]) [µg/mL] | Minimum inhibitory concentration (N. gonorrhoeae; [3]) [µg/mL] | Minimum inhibitory concentration (N. gonorrhoeae; [4]) [µg/mL] | Minimum inhibitory concentration (N. gonorrhoeae; [5]) [µg/mL] | Minimum inhibitory concentration (N. gonorrhoeae; [6]) [µg/mL] | Minimum inhibitory concentration (N. gonorrhoeae; [7]) [µg/mL] | Minimum inhibitory concentration (N. gonorrhoeae; [8]) [µg/mL] | Minimum inhibitory concentration (N. gonorrhoeae; [9]) [µg/mL] | Minimum inhibitory concentration (N. gonorrhoeae; [10]) [µg/mL] | Minimum inhibitory concentration (N. gonorrhoeae; [11]) [µg/mL] | Minimum inhibitory concentration (N. gonorrhoeae; [12]) [µg/mL] | Minimum inhibitory concentration (N. gonorrhoeae; [13]) [µg/mL] | Minimum inhibitory concentration (N. gonorrhoeae; [14]) [µg/mL] | Minimum inhibitory concentration (N. gonorrhoeae; [15]) [µg/mL] | IC50 [1] [nM] |
| --- | --- | --- | --- | --- | --- | --- | --- | --- | --- | --- | --- | --- | --- | --- | --- |
| Cc1c(CN(C)C(=O)/C=C/c2cnc3c(c2)NCC(O)C(=O)N3)oc2ccccc12 (single isomer, unassigned) [Compound 7] | 0.125 (≈ 0.308 µM) | 0.06 (≈ 0.148 µM) | 0.06 (≈ 0.148 µM) | 0.06 (≈ 0.148 µM) | 0.03 (≈ 0.0738 µM) | 0.125 (≈ 0.308 µM) | 0.125 (≈ 0.308 µM) | 0.125 (≈ 0.308 µM) | 0.06 (≈ 0.148 µM) | 0.125 (≈ 0.308 µM) | 0.25 (≈ 0.615 µM) | 0.125 (≈ 0.308 µM) | 0.06 (≈ 0.148 µM) | 0.06 (≈ 0.148 µM) | 1.9 |
| Cc1c(CN(C)C(=O)/C=C/c2cnc3c(c2)NCC(O)C(=O)N3)oc2ccccc12 (single isomer, unassigned) [Compound 8] | 1 (≈ 2.46 µM) | 0.5 (≈ 1.23 µM) | 0.5 (≈ 1.23 µM) | 0.5 (≈ 1.23 µM) | 0.25 (≈ 0.615 µM) | 1 (≈ 2.46 µM) | 1 (≈ 2.46 µM) | 1 (≈ 2.46 µM) | 0.5 (≈ 1.23 µM) | 0.5 (≈ 1.23 µM) | 1 (≈ 2.46 µM) | 0.5 (≈ 1.23 µM) | 1 (≈ 2.46 µM) | 0.5 (≈ 1.23 µM) | 15 |
